Experimental findings from article PMC3972754 (European biophysics journal : EBJ, 2013) are described below.

For this series, the system named is N[C@@H](Cc1ccccc1)C(=O)O. Briefly: purified protein. The settings on record: 20 °C, 0.1 M Na-HEPES pH 7.4, O2 saturated, FeSO4, 350 µM DMPH4.

For “cPAH (phenylalanine hydroxylase from Chromobacterium violaceum) (Chromobacterium violaceum ATCC 12472; F258A)”, the Km came to 467.5 ± 99.6 µM, the catalytic constant (kcat) is 10.9 s⁻¹ and the kcat/Km turned out to be 14000 M⁻¹ s⁻¹.

For orientation: Km means the concentration of substrate that gives half-maximal velocity. As a reminder, the kcat is the number of substrate molecules converted per active site and unit of time at saturation. In general, kcat/Km refers to the turnover number divided by the Michaelis constant.
